Reference: ChEMBL document CHEMBL1127929, “The synthesis and serine -lactamase inhibitory activity of some phosphonamidate analogues of dipeptides” (1994)

Chains of the proteins cited; added tags and fusions are not shown.
UniProt P62593, whole entry: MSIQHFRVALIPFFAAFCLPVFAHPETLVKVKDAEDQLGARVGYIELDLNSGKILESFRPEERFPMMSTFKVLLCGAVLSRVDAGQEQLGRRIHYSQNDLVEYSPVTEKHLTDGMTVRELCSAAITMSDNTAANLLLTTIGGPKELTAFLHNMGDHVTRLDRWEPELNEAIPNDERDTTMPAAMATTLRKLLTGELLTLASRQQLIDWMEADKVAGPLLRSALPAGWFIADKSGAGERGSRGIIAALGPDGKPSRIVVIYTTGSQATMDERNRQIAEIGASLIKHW

Biological target: Beta-lactamase TEM (Escherichia coli) (UniProt P62593)

`CC1(C)S[C@@H]2[C@H](NC(=O)[C@H](N)c3ccc(O)cc3)C(=O)N2[C@H]1C(=O)O` was tested, and the MIC was over 256 µg/mL.
